{"source": "patent US20220089698A1", "about": "“ANTIBODIES THAT TARGET HIV GP120 AND METHODS OF USE” (published 2022)", "binders": {"B1": {"name": "Antibody 2.3.5-1 (antibody, human IgG1, kappa)", "heavy": "QVHLSQSGAAVTKPGASVRVSCEASGYNIRDYFIHWWRQAPGQGLQWVGWINPKTGQPNNPRQFQGRVSLTRHASWDFDTFSFYMDLKAVRSDDTAIYFCARQRSDYWDFDVWGSGTQVTVSSASTKGPSVFPLAPSSKSTSGGTAALGCLVKDYFPEPVTVSWNSGALTSGVHTFPAVLQSSGLYSLSSVVTVPSSSLGTQTYICNVNHKPSNTKVDKKVEPKSCDKTHTCPPCPAPELLAGPDVFLFPPKPKDTLMISRTPEVTCVVVDVSHEDPEVKFNWYVDGVEVHNAKTKPREEQYNSTYRVVSVLTVLHQDWLNGKEYKCKVSNKALPLPEEKTISKAKGQPREPQVYTLPPSREEMTKNQVSLTCLVKGFYPSDIAVEWESNGQPENNYKTTPPVLDSDGSFFLYSKLTVDKSRWQQGNVFSCSVLHEALHSHYTQKSLSLSPGK", "light": "not shown"}}, "assay_in_all_cases": "cell-based or functional assay", "key": {"[1]": {"target": "HIV-1 envelope glycoprotein (Env, gp120) of virus VS017 (HIV-1)"}, "[2]": {"target": "HIV-1 envelope glycoprotein (Env, gp120) of virus 8320 (HIV-1)"}, "[3]": {"target": "HIV-1 envelope glycoprotein (Env, gp120) of virus 7051 (HIV-1)"}, "[4]": {"target": "HIV-1 envelope glycoprotein (Env, gp120) of virus 7714 (HIV-1)"}, "[5]": {"target": "HIV-1 envelope glycoprotein (Env, gp120) of virus 7141 (HIV-1)"}, "[6]": {"target": "HIV-1 envelope glycoprotein (Env, gp120) of virus 1012 (HIV-1)"}, "[7]": {"target": "HIV-1 envelope glycoprotein (Env, gp120) of virus VS042 (HIV-1)"}, "[8]": {"target": "HIV-1 envelope glycoprotein (Env, gp120) of virus 7467 (HIV-1)"}, "[9]": {"target": "HIV-1 envelope glycoprotein (Env, gp120) of virus 8106 (HIV-1)"}, "[10]": {"target": "HIV-1 envelope glycoprotein (Env, gp120) of virus 8134 (HIV-1)"}, "[11]": {"target": "HIV-1 envelope glycoprotein (Env, gp120) of virus 1489 (HIV-1)"}, "[12]": {"target": "HIV-1 envelope glycoprotein (Env, gp120) of virus VS044 (HIV-1)"}, "[13]": {"target": "HIV-1 envelope glycoprotein (Env, gp120) of virus CHO77 (HIV-1)"}, "[14]": {"target": "HIV-1 envelope glycoprotein (Env, gp120) of virus 7015 (HIV-1)"}, "[15]": {"target": "HIV-1 envelope glycoprotein (Env, gp120) of virus 92US727 (HIV-1)"}, "[16]": {"target": "HIV-1 envelope glycoprotein (Env, gp120) of virus 7576 (HIV-1)"}, "[17]": {"target": "HIV-1 envelope glycoprotein (Env, gp120) of virus 1003 (HIV-1)"}, "[18]": {"target": "HIV-1 envelope glycoprotein (Env, gp120) of virus VS046 (HIV-1)"}, "[19]": {"target": "HIV-1 envelope glycoprotein (Env, gp120) of virus 1413 (HIV-1)"}, "[20]": {"target": "HIV-1 envelope glycoprotein (Env, gp120) of virus 302076 (HIV-1)"}, "[21]": {"target": "HIV-1 envelope glycoprotein (Env, gp120) of virus 8318 (HIV-1)"}, "[22]": {"target": "HIV-1 envelope glycoprotein (Env, gp120) of virus REJO (HIV-1)"}, "[23]": {"target": "HIV-1 envelope glycoprotein (Env, gp120) of virus THRO (HIV-1)"}, "[24]": {"target": "HIV-1 envelope glycoprotein (Env, gp120) of virus 7595 (HIV-1)"}, "[25]": {"target": "HIV-1 envelope glycoprotein (Env, gp120) of virus 8110 (HIV-1)"}, "[26]": {"target": "HIV-1 envelope glycoprotein (Env, gp120) of virus 8117 (HIV-1)"}, "[27]": {"target": "HIV-1 envelope glycoprotein (Env, gp120) of virus 92US712 (HIV-1)"}, "[28]": {"target": "HIV-1 envelope glycoprotein (Env, gp120) of virus 7103 (HIV-1)"}, "[29]": {"target": "HIV-1 envelope glycoprotein (Env, gp120) of virus VS030 (HIV-1)"}, "[30]": {"target": "HIV-1 envelope glycoprotein (Env, gp120) of virus VS004 (HIV-1)"}, "[31]": {"target": "HIV-1 envelope glycoprotein (Env, gp120) of virus VS001 (HIV-1)"}, "[32]": {"target": "HIV-1 envelope glycoprotein (Env, gp120) of virus 92HT593 (HIV-1)"}, "[33]": {"target": "HIV-1 envelope glycoprotein (Env, gp120) of virus VS049 (HIV-1)"}, "[34]": {"target": "HIV-1 envelope glycoprotein (Env, gp120) of virus VS026 (HIV-1)"}, "[35]": {"target": "HIV-1 envelope glycoprotein (Env, gp120) of virus 92US657 (HIV-1)"}, "[36]": {"target": "HIV-1 envelope glycoprotein (Env, gp120) of virus VS043 (HIV-1)"}, "[37]": {"target": "HIV-1 envelope glycoprotein (Env, gp120) of virus 8176 (HIV-1)"}, "[38]": {"target": "HIV-1 envelope glycoprotein (Env, gp120) of virus VS039 (HIV-1)"}, "[39]": {"target": "HIV-1 envelope glycoprotein (Env, gp120) of virus 7552 (HIV-1)"}, "[40]": {"target": "HIV-1 envelope glycoprotein (Env, gp120) of virus VS052 (HIV-1)"}}}
{"binder": "B1", "values": [{"measurement": "Virus Neutralization Potency", "setting": "[1]", "value": 0.7, "unit": "µg/mL"}, {"measurement": "Virus Neutralization Potency", "setting": "[2]", "value": 1.48, "unit": "µg/mL"}, {"measurement": "Virus Neutralization Potency", "setting": "[3]", "value": 4.46, "unit": "µg/mL"}, {"measurement": "Virus Neutralization Potency", "setting": "[4]", "value": 1.47, "unit": "µg/mL"}, {"measurement": "Virus Neutralization Potency", "setting": "[5]", "value": 2.41, "unit": "µg/mL"}, {"measurement": "Virus Neutralization Potency", "setting": "[6]", "value": 1.63, "unit": "µg/mL"}, {"measurement": "Virus Neutralization Potency", "setting": "[7]", "value": 1.56, "unit": "µg/mL"}, {"measurement": "Virus Neutralization Potency", "setting": "[8]", "value": 0.09, "unit": "µg/mL"}, {"measurement": "Virus Neutralization Potency", "setting": "[9]", "value": 1.44, "unit": "µg/mL"}, {"measurement": "Virus Neutralization Potency", "setting": "[10]", "value": 1.52, "unit": "µg/mL"}, {"measurement": "Virus Neutralization Potency", "setting": "[11]", "value": 0.14, "unit": "µg/mL"}, {"measurement": "Virus Neutralization Potency", "setting": "[12]", "value": 0.17, "unit": "µg/mL"}, {"measurement": "Virus Neutralization Potency", "setting": "[13]", "value": 0.04, "unit": "µg/mL"}, {"measurement": "Virus Neutralization Potency", "setting": "[14]", "value": 1.89, "unit": "µg/mL"}, {"measurement": "Virus Neutralization Potency", "setting": "[15]", "value": 9.32, "unit": "µg/mL"}, {"measurement": "Virus Neutralization Potency", "setting": "[16]", "value": 0.61, "unit": "µg/mL"}, {"measurement": "Virus Neutralization Potency", "setting": "[17]", "value": 1.06, "unit": "µg/mL"}, {"measurement": "Virus Neutralization Potency", "setting": "[18]", "value": 0.04, "unit": "µg/mL"}, {"measurement": "Virus Neutralization Potency", "setting": "[19]", "value": 3.79, "unit": "µg/mL"}, {"measurement": "Virus Neutralization Potency", "setting": "[20]", "value": 0.06, "unit": "µg/mL"}, {"measurement": "Virus Neutralization Potency", "setting": "[21]", "value": 0.41, "unit": "µg/mL"}, {"measurement": "Virus Neutralization Potency", "setting": "[22]", "value": 0.02, "unit": "µg/mL"}, {"measurement": "Virus Neutralization Potency", "setting": "[23]", "value": 2.34, "unit": "µg/mL"}, {"measurement": "Virus Neutralization Potency", "setting": "[24]", "value": 3.07, "unit": "µg/mL"}, {"measurement": "Virus Neutralization Potency", "setting": "[25]", "value": 1.82, "unit": "µg/mL"}, {"measurement": "Virus Neutralization Potency", "setting": "[26]", "value": 1.06, "unit": "µg/mL"}, {"measurement": "Virus Neutralization Potency", "setting": "[27]", "value": 0.05, "unit": "µg/mL"}, {"measurement": "Virus Neutralization Potency", "setting": "[28]", "value": 1.05, "unit": "µg/mL"}, {"measurement": "Virus Neutralization Potency", "setting": "[29]", "value": 6.23, "unit": "µg/mL"}, {"measurement": "Virus Neutralization Potency", "setting": "[30]", "value": 2.77, "unit": "µg/mL"}, {"measurement": "Virus Neutralization Potency", "setting": "[31]", "value": 0.13, "unit": "µg/mL"}, {"measurement": "Virus Neutralization Potency", "setting": "[32]", "value": 0.17, "unit": "µg/mL"}, {"measurement": "Virus Neutralization Potency", "setting": "[33]", "value": 36.1, "unit": "µg/mL"}, {"measurement": "Virus Neutralization Potency", "setting": "[34]", "value": 0.1, "unit": "µg/mL"}, {"measurement": "Virus Neutralization Potency", "setting": "[35]", "value": 0.24, "unit": "µg/mL"}, {"measurement": "Virus Neutralization Potency", "setting": "[36]", "value": 0.79, "unit": "µg/mL"}, {"measurement": "Virus Neutralization Potency", "setting": "[37]", "value": 0.33, "unit": "µg/mL"}, {"measurement": "Virus Neutralization Potency", "setting": "[38]", "value": 0.15, "unit": "µg/mL"}, {"measurement": "Virus Neutralization Potency", "setting": "[39]", "value": "> 80", "unit": "µg/mL"}, {"measurement": "Virus Neutralization Potency", "setting": "[40]", "value": 0.31, "unit": "µg/mL"}]}
